Assay [1] relates to M. tuberculosis ATCC 35838 (Rif resistance). Kind of assay: microbe, parasite or virus in culture. The format is cell-based. The conditions noted are these: Mycobacterium tuberculosis, ATCC35838.
Assay [2] deals with M. tuberculosis ATCC 35826 (CS resistance). The assay is described as follows: microbe, parasite or virus in culture. The format is cell-based. The note with it: Mycobacterium tuberculosis, ATCC35826.
Assay [3] concerns M. tuberculosis MmpL3, G253E. The format is cell-based, Mycobacterium tuberculosis.
The subject of assay [4] is M. tuberculosis MmpL3, G758A/G253E. Type of assay: cell-based, Mycobacterium tuberculosis.
The subject of assay [5] is M. tuberculosis ATCC 3583 (INH resistance). The assay is described as follows: microbe, parasite or virus in culture. The format is cell-based. The note with it: Mycobacterium tuberculosis, ATCC3583, read-out: MIC90, ATCC 3583 (INH resistance).
Assay [6] concerns M. tuberculosis QcrB D317T. Type of assay: cell-based, Mycobacterium tuberculosis.

Values after ≈ are worked out from the molar mass of the structure shown.

The results in this text go back to PMC9017349, “Spiropyrimidinetriones: a Class of DNA Gyrase Inhibitors with Activity against Mycobacterium tuberculosis and without Cross-Resistance to Fluoroquinolones” (Antimicrobial Agents and Chemotherapy, 2022).

With `Cc1nnc(-c2noc3c(F)c4c(cc23)CC2(C(=O)NC(=O)NC2=O)[C@H]2[C@H](C)O[C@H](C)CN42)o1` [Compound 22], the MIC90 in assay [1] is 2 µM (≈ 0.941 µg/mL); in assay [2] it was 2 µM (≈ 0.941 µg/mL); in assay [5] it was 3.9 µM (≈ 1.83 µg/mL). Also, in assay [3], the “MIC90, MmpL3, G253E” value is 2.0 µM (≈ 0.941 µg/mL). Besides, the “MIC90, MmpL3, G758A/G253E” value in assay [4] came to 2.0 µM (≈ 0.941 µg/mL). Also, the “MIC90, QcrB D317T” value in assay [6] was 3.9 µM (≈ 1.83 µg/mL).
